# The list shows a part of the results, in another mix than the full data.
# Assays:
# [1] = tested on: Plasmodium falciparum; assay: GSK_TCMDC: Inhibition of Plasmodium falciparum Dd2 in whole red blood cells, using parasite LDH activity as an index of growth. Test compounds present at 2uM; assay type: functional
# [2] = tested on: Plasmodium falciparum; assay: GSK_TCMDC: Inhibition of Plasmodium falciparum 3D7 LDH activity, using an LDH reporter assay. Test compounds present at 2uM; assay type: functional, organism-based
smiles,measurement,setting,value
COc1cc(C(=O)NC(SC2=NCCS2)C(Cl)(Cl)Cl)cc(OC)c1OC (configuration not stated),inhibition,[1],50%
same,inhibition,[2],1%
